Experimental data as given in article PMC8485799, “Synthesis and Antiprotozoal Profile of 3,4,5‐Trisubstituted Isoxazoles” (ChemistryOpen, 2021).

What was measured:
[1] = test system: promastigote forms of Leishmania amazonensis (WHOM/BR/75/JOSEFA strain); test: Antiproliferative assay (XTT), promastigote forms, 72 h; type: cell-based; conditions: for Fold change in activity against L. amazonensis relative to analog/precursor: promastigote IC50 ratio, 3 db less active vs 2 db, 3 bc more active vs 2 bc, 4 ac more active vs 3 ac
Experimental: (§1) The antiproliferative activity was determined in promastigote forms of Leishmania amazonensis (WHOM/BR/75/JOSEFA strain) and epimastigote forms of Trypanosoma cruzi (Y strain). The promastigote forms of L. amazonensis were cultured in Warren medium (brain heart infusion, hemin, and folic acid; pH 7.4) supplemented with 10 % fetal bovine serum (FBS) at 25 °C. The epimastigote forms of T.cruzi were cultured in LIT medium (liver infusion tryptose; hemin, and folic acid; pH 7.4) supplemented with 10 % FBS at 28 °C. Cytotoxicity in mammalian cells was determined in fibroblast line (L929) and macrophages (J774 A1). Fibroblasts were cultured in DMEM medium (pH 7.2) supplemented with 10 % FBS at 37 °C in a 5 % CO2 atmosphere. Macrophages were cultured in RPMI‐1640 (pH 7.2) medium supplemented with 10 % FBS at 37 °C in a 5 % CO2 atmosphere.
(§2) Stock solutions of the compounds were prepared in DMSO and then diluted in the respective medium.
(§3) Promastigote forms (1×10^6 parasites.mL^−1) were cultured in 96‐well plates in the presence and absence of different concentrations of compounds diluted in Warren medium supplemented with 10 % FBS and incubated for 72 h. The epimastigote forms (1×10^6 parasites.mL^−1) were cultured in 96‐well plates in the presence and absence of different concentrations of compounds diluted in LIT medium supplemented with 10 % FBS and incubated for 96 h. After treatment, the parasites were incubated with a solution of 2,3‐bis(2‐methoxy‐4‐nitro‐5‐sulfophenyl)‐2H‐tetrazolium‐5‐carboxanilide (XTT; 0.5 mg.mL^−1) and phenazine methanesulfonate activator (PMS; 0.06 mg.mL^−1) in PBS for 4 h. Then, the absorbance was read in a microplate reader (Bio Tek‐Power Wave XS) at 450 nm.[20] The percentage of viable parasites was calculated in relation to the control in order to determine the concentration that inhibits 50 % of the protozoa (IC50). The control groups of each experiment received the same experimental conditions as the treated groups (cell concentration used, temperature, and incubation time).

[2] = test system: epimastigote forms of Trypanosoma cruzi (Y strain); test: Antiproliferative assay (XTT), epimastigote forms, 96 h; type: cell-based
Experimental: as §1, §2, §3

CCOC(=O)c1noc(-c2ccc([N+](=O)[O-])cc2)c1CNc1ccccc1 [2 aa, 3‐Carboxyethyl‐4‐(phenyl)aminomethyl‐5‐(4‐nitrophenyl)isoxazole]
SIL-F, selectivity index (Fibroblast CC50/L. amazonensis IC50) ([1]; fibroblast vs promastigote): 7.74 | SIL-M, selectivity index (Macrophages CC50/L. amazonensis IC50) ([1]; macrophages vs promastigote): 5.82 | SIT-F, selectivity index (Fibroblast CC50/T. cruzi IC50) ([2]; fibroblast vs epimastigote): 4.97 | SIT-M, selectivity index (Macrophages CC50/T. cruzi IC50) ([2]; macrophages vs epimastigote): 3.74

COc1ccc(NCc2c(C(=O)NN)noc2-c2ccccc2)cc1 [3 bc]
Fold change in activity against L. amazonensis relative to analog/precursor [1]: 3.6 fold

NNC(=O)c1noc(-c2ccc(Cl)cc2)c1CNc1ccc(Cl)cc1 [3 db]
Fold change in activity against L. amazonensis relative to analog/precursor [1]: 2.7 fold

COc1ccc(NCc2c(C(=O)N/N=C/c3ccccc3)noc2-c2ccc([N+](=O)[O-])cc2)cc1 [4 ac]
Fold change in activity against L. amazonensis relative to analog/precursor [1]: approximately 4 fold | Fold increase in anti-Trypanosoma cruzi activity relative to precursor ([2]; 4 ac vs carbohydrazide 3 ac): ~5 fold
